target: hNaV1.7 (Homo sapiens, UniProt Q15858); test: Automated whole-cell patch-clamp electrophysiology, hNaV1.7/β1 in HEK293 cells; conditions: Yes/No summary, Table 2

Chains of the proteins cited; added tags and fusions are not shown.
UniProt Q15858, whole entry, looked up: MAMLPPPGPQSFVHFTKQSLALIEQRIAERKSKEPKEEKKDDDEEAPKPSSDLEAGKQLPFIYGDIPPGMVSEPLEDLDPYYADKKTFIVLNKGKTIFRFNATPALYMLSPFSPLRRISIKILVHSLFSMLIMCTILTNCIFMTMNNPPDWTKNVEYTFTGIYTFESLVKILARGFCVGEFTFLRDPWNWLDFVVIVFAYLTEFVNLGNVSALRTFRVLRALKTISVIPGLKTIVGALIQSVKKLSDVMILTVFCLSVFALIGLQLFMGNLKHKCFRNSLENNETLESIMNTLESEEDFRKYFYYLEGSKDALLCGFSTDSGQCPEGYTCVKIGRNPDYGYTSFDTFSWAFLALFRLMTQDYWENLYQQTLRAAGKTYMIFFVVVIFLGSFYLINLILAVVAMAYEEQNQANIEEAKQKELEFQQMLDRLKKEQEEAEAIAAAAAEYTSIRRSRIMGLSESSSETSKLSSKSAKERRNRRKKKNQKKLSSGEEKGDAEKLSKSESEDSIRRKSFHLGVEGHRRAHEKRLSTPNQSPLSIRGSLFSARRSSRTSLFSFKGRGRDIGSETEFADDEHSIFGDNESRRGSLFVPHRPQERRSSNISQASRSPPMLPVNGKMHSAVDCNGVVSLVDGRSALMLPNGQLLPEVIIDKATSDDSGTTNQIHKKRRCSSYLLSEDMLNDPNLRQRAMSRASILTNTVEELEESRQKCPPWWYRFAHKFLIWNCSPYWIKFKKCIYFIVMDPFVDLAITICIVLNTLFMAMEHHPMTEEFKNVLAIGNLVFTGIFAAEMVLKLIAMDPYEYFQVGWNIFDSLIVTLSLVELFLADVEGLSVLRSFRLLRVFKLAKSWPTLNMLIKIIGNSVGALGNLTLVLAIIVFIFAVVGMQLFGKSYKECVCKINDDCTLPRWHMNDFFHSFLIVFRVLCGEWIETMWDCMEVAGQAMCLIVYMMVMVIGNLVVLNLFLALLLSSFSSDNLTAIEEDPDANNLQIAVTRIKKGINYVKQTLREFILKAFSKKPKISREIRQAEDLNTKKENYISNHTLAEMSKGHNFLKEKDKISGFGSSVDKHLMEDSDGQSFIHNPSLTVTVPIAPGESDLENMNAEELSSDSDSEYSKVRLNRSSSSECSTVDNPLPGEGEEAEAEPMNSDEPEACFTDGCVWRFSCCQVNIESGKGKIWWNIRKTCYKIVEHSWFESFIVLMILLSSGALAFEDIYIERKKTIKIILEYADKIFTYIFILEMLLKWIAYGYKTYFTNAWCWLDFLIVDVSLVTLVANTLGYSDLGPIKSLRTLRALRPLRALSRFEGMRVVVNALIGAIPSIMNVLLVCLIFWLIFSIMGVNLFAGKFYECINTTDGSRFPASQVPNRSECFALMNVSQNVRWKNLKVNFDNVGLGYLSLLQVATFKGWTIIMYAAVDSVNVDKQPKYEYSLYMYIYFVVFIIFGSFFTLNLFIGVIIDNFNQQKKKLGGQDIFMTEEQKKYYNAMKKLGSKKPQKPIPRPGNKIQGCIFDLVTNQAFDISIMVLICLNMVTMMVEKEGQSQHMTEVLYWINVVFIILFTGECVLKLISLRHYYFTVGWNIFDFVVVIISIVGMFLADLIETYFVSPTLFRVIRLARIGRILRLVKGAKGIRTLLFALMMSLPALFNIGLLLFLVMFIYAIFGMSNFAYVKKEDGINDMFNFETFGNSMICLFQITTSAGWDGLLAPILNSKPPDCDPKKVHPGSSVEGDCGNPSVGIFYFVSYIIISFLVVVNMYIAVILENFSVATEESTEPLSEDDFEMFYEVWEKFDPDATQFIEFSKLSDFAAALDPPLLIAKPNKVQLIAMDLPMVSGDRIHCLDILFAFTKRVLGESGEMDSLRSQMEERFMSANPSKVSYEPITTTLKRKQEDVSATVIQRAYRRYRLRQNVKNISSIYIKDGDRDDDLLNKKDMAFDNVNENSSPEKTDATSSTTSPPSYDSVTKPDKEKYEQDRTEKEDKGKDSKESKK

| SMILES | Inhibitory Potency at hNaV1.7 |
| --- | --- |
| C[C@@H]1NC(=O)[C@H](Cc2c[nH]cn2)NC(=O)[C@H](CC(=O)O)NC(=O)[C@H](CCCNC(=N)N)NC(=O)[C@@H]2CSSC[C@H](NC(=O)CN)C(=O)N[C@H]3CSSC[C@H](NC(=O)[C@H](CCCNC(=N)N)NC1=O)C(=O)N[C@H](C(N)=O)CSSC[C@H](NC(=O)CNC(=O)[C@H](CCCCN)NC(=O)[C@@H]1CCCN1C(=O)CNC(=O)[C@H](CC(N)=O)NC3=O)C(=O)N[C@@H](CO)C(=O)N[C@@H](CO)C(=O)N[C@@H](CCCCN)C(=O)N[C@@H](Cc1c[nH]c3ccccc13)C(=O)N2 | Yes |

same assay, conditions: read-out: IC50 hNaV1.7; analogue and extended µ-conotoxin series (Table 3, Figures 2 and 6); automated whole-cell patch-clamp, HEK293 hNaV1.7/β1, 5 min per concentration, 22 °C; mean ± SEM, n = 3–4 cells

| SMILES | IC50 |
| --- | --- |
| C[C@@H]1NC(=O)[C@H](C)NC(=O)[C@H](Cc2c[nH]cn2)NC(=O)[C@H](CC(=O)O)NC(=O)[C@H](Cc2c[nH]cn2)NC(=O)[C@@H]2CSSC[C@H](N)C(=O)N[C@H]3CSSC[C@H](NC1=O)C(=O)N[C@H](C(N)=O)CSSC[C@H](NC(=O)CNC(=O)CNC(=O)[C@H](CCCNC(=N)N)NC(=O)CNC(=O)[C@H](CC(N)=O)NC3=O)C(=O)N[C@@H](CO)C(=O)N[C@@H](CO)C(=O)N[C@@H](CCCNC(=N)N)C(=O)N[C@@H](Cc1c[nH]c3ccccc13)C(=O)N2 | > 1000 nM |
| C[C@@H]1NC(=O)[C@H](C)NC(=O)[C@H](Cc2c[nH]cn2)NC(=O)[C@H](CC(=O)O)NC(=O)[C@H](CCCNC(=N)N)NC(=O)[C@@H]2CSSC[C@H](N)C(=O)N[C@H]3CSSC[C@H](NC1=O)C(=O)N[C@H](C(N)=O)CSSC[C@H](NC(=O)CNC(=O)CNC(=O)[C@H](CCCNC(=N)N)NC(=O)CNC(=O)[C@H](CC(N)=O)NC3=O)C(=O)N[C@@H](CO)C(=O)N[C@@H](CO)C(=O)N[C@@H](CCCNC(=N)N)C(=O)N[C@@H](Cc1c[nH]c3ccccc13)C(=O)N2 | 482 nM |
| N=C(N)NCCC[C@@H]1NC(=O)CNC(=O)[C@H](CC(N)=O)NC(=O)[C@@H]2CSSC[C@@H]3NC(=O)[C@H](Cc4c[nH]c5ccccc45)NC(=O)[C@H](CCCCN)NC(=O)[C@H](CO)NC(=O)[C@H](CO)NC(=O)[C@H](CSSC[C@@H](C(N)=O)NC(=O)[C@H](CSSC[C@H](N)C(=O)N2)NC(=O)[C@H](CCCNC(=N)N)NC(=O)[C@H](CO)NC(=O)[C@H](Cc2c[nH]cn2)NC(=O)[C@H](CC(=O)O)NC(=O)[C@H](CCCNC(=N)N)NC3=O)NC(=O)CNC(=O)CNC1=O | 305 nM |
| C[C@@H]1NC(=O)[C@H](Cc2c[nH]cn2)NC(=O)[C@H](CC(=O)O)NC(=O)[C@H](C)NC(=O)[C@@H]2CSSC[C@H](NC(=O)CNC(=O)[C@@H](N)CCCNC(=N)N)C(=O)N[C@H]3CSSC[C@H](NC(=O)[C@H](CCCNC(=N)N)NC1=O)C(=O)N[C@H](C(N)=O)CSSC[C@H](NC(=O)CNC(=O)CNC(=O)[C@H](CCCNC(=N)N)NC(=O)CNC(=O)[C@H](CC(N)=O)NC3=O)C(=O)N[C@@H](CO)C(=O)N[C@@H](CO)C(=O)N[C@@H](CCCNC(=N)N)C(=O)N[C@@H](Cc1c[nH]c3ccccc13)C(=O)N2 | 334 nM |
| C[C@@H]1NC(=O)[C@H](Cc2c[nH]cn2)NC(=O)[C@H](CC(=O)O)NC(=O)[C@H](Cc2c[nH]cn2)NC(=O)[C@@H]2CSSC[C@H](NC(=O)CNC(=O)[C@@H](N)CCCNC(=N)N)C(=O)N[C@H]3CSSC[C@H](NC(=O)[C@H](CCCNC(=N)N)NC1=O)C(=O)N[C@H](C(N)=O)CSSC[C@H](NC(=O)CNC(=O)CNC(=O)[C@H](CCCNC(=N)N)NC(=O)CNC(=O)[C@H](CC(N)=O)NC3=O)C(=O)N[C@@H](CO)C(=O)N[C@@H](CO)C(=O)N[C@@H](CCCNC(=N)N)C(=O)N[C@@H](Cc1c[nH]c3ccccc13)C(=O)N2 | 66.5 nM |
| C[C@@H]1NC(=O)[C@H](C)NC(=O)[C@H](Cc2c[nH]cn2)NC(=O)[C@H](CC(=O)O)NC(=O)[C@H](Cc2c[nH]cn2)NC(=O)[C@@H]2CSSC[C@H](NC(=O)CNC(=O)[C@@H](N)CCCNC(=N)N)C(=O)N[C@H]3CSSC[C@H](NC1=O)C(=O)N[C@H](C(N)=O)CSSC[C@H](NC(=O)CNC(=O)CNC(=O)[C@H](CCCNC(=N)N)NC(=O)CNC(=O)[C@H](CC(N)=O)NC3=O)C(=O)N[C@@H](CO)C(=O)N[C@@H](CO)C(=O)N[C@@H](CCCNC(=N)N)C(=O)N[C@@H](Cc1c[nH]c3ccccc13)C(=O)N2 | 889 nM |
| C[C@@H]1NC(=O)[C@H](Cc2c[nH]cn2)NC(=O)[C@H](CC(=O)O)NC(=O)[C@H](Cc2c[nH]cn2)NC(=O)[C@@H]2CSSC[C@H](N)C(=O)N[C@H]3CSSC[C@H](NC(=O)[C@H](CCCNC(=N)N)NC1=O)C(=O)N[C@H](C(N)=O)CSSC[C@H](NC(=O)CNC(=O)CNC(=O)[C@H](CCCNC(=N)N)NC(=O)CNC(=O)[C@H](CC(N)=O)NC3=O)C(=O)N[C@@H](CO)C(=O)N[C@@H](CO)C(=O)N[C@@H](CCCNC(=N)N)C(=O)N[C@@H](Cc1c[nH]c3ccccc13)C(=O)N2 | 667 nM |
| C[C@@H]1NC(=O)[C@H](Cc2c[nH]cn2)NC(=O)[C@H](C)NC(=O)[C@H](CCCNC(=N)N)NC(=O)[C@@H]2CSSC[C@H](NC(=O)CNC(=O)[C@@H](N)CCCNC(=N)N)C(=O)N[C@H]3CSSC[C@H](NC(=O)[C@H](CCCNC(=N)N)NC1=O)C(=O)N[C@H](C(N)=O)CSSC[C@H](NC(=O)CNC(=O)CNC(=O)[C@H](CCCNC(=N)N)NC(=O)CNC(=O)[C@H](CC(N)=O)NC3=O)C(=O)N[C@@H](CO)C(=O)N[C@@H](CO)C(=O)N[C@@H](CCCNC(=N)N)C(=O)N[C@@H](Cc1c[nH]c3ccccc13)C(=O)N2 | 124 nM |
| C[C@@H]1NC(=O)[C@H](Cc2c[nH]cn2)NC(=O)[C@H](CC(=O)O)NC(=O)[C@H](CCCNC(=N)N)NC(=O)[C@@H]2CSSC[C@H](NC(=O)CN)C(=O)N[C@H]3CSSC[C@H](NC(=O)[C@H](CCCNC(=N)N)NC1=O)C(=O)N[C@H](C(N)=O)CSSC[C@H](NC(=O)CNC(=O)[C@H](CCCCN)NC(=O)[C@@H]1CCCN1C(=O)CNC(=O)[C@H](CC(N)=O)NC3=O)C(=O)N[C@@H](CO)C(=O)N[C@@H](CO)C(=O)N[C@@H](CCCCN)C(=O)N[C@@H](Cc1c[nH]c3ccccc13)C(=O)N2 | 546 nM |
| C[C@@H]1NC(=O)[C@H](Cc2c[nH]cn2)NC(=O)[C@H](CC(=O)O)NC(=O)[C@H](CCC(N)=O)NC(=O)[C@@H]2CSSC[C@H](NC(=O)CNC(=O)[C@@H](N)CCCNC(=N)N)C(=O)N[C@H]3CSSC[C@H](NC(=O)[C@H](CCCNC(=N)N)NC1=O)C(=O)N[C@H](C(N)=O)CSSC[C@H](NC(=O)CNC(=O)CNC(=O)[C@H](CCCNC(=N)N)NC(=O)CNC(=O)[C@H](CC(N)=O)NC3=O)C(=O)N[C@@H](CO)C(=O)N[C@@H](CO)C(=O)N[C@@H](CCCNC(=N)N)C(=O)N[C@@H](Cc1c[nH]c3ccccc13)C(=O)N2 | 151 nM |
| C[C@@H]1NC(=O)[C@H](C)NC(=O)[C@H](Cc2c[nH]cn2)NC(=O)[C@H](CC(=O)O)NC(=O)[C@H](CCCNC(=N)N)NC(=O)[C@@H]2CSSC[C@H](NC(=O)CNC(=O)[C@@H](N)CCCNC(=N)N)C(=O)N[C@H]3CSSC[C@H](NC1=O)C(=O)N[C@H](C(N)=O)CSSC[C@H](NC(=O)CNC(=O)CNC(=O)[C@H](CCCNC(=N)N)NC(=O)CNC(=O)[C@H](CC(N)=O)NC3=O)C(=O)N[C@@H](CO)C(=O)N[C@@H](CO)C(=O)N[C@@H](CCCNC(=N)N)C(=O)N[C@@H](Cc1c[nH]c3ccccc13)C(=O)N2 | 142 nM |
| C[C@@H]1NC(=O)[C@H](Cc2c[nH]cn2)NC(=O)[C@H](CC(=O)O)NC(=O)[C@H](CCCNC(=N)N)NC(=O)[C@@H]2CSSC[C@H](N)C(=O)N[C@H]3CSSC[C@H](NC(=O)[C@H](CCCNC(=N)N)NC1=O)C(=O)N[C@H](C(N)=O)CSSC[C@H](NC(=O)CNC(=O)CNC(=O)[C@H](CCCNC(=N)N)NC(=O)CNC(=O)[C@H](CC(N)=O)NC3=O)C(=O)N[C@@H](CO)C(=O)N[C@@H](CO)C(=O)N[C@@H](CCCNC(=N)N)C(=O)N[C@@H](Cc1c[nH]c3ccccc13)C(=O)N2 | 106 nM |
| C[C@@H]1NC(=O)[C@H](Cc2c[nH]cn2)NC(=O)[C@H](CC(=O)O)NC(=O)[C@H](CCCNC(=N)N)NC(=O)[C@@H]2CSSC[C@H](NC(=O)CNC(=O)[C@@H](N)CCCNC(=N)N)C(=O)N[C@H]3CSSC[C@H](NC(=O)[C@H](CCCNC(=N)N)NC1=O)C(=O)N[C@H](C(N)=O)CSSC[C@H](NC(=O)CNC(=O)[C@H](CCCNC(=N)N)NC(=O)[C@H](CCCNC(=N)N)NC(=O)CNC(=O)[C@H](CC(N)=O)NC3=O)C(=O)N[C@@H](CO)C(=O)N[C@@H](CO)C(=O)N[C@@H](CCCNC(=N)N)C(=O)N[C@@H](Cc1c[nH]c3ccccc13)C(=O)N2 | 156 nM |

same assay, conditions: ↓ fold-decrease, ↑ fold-increase in potency compared to SxIIIC; ns no significant difference; listed as [R16H; R20A]SxIIIC

| SMILES | Fold Difference to SxIIIC (hNaV1.7) |
| --- | --- |
| C[C@@H]1NC(=O)[C@H](C)NC(=O)[C@H](Cc2c[nH]cn2)NC(=O)[C@H](CC(=O)O)NC(=O)[C@H](Cc2c[nH]cn2)NC(=O)[C@@H]2CSSC[C@H](NC(=O)CNC(=O)[C@@H](N)CCCNC(=N)N)C(=O)N[C@H]3CSSC[C@H](NC1=O)C(=O)N[C@H](C(N)=O)CSSC[C@H](NC(=O)CNC(=O)CNC(=O)[C@H](CCCNC(=N)N)NC(=O)CNC(=O)[C@H](CC(N)=O)NC3=O)C(=O)N[C@@H](CO)C(=O)N[C@@H](CO)C(=O)N[C@@H](CCCNC(=N)N)C(=O)N[C@@H](Cc1c[nH]c3ccccc13)C(=O)N2 | 6 fold |

Source: publication PMC9506549, “µ-Conotoxins Targeting the Human Voltage-Gated Sodium Channel Subtype NaV1.7” (2022)
